Test results from the supplement of paper PMC9931576.
Human monoclonal antibodies against the spike receptor-binding domain (heavy:light variable regions). IC50 against pseudoviruses bearing the spike of naturally observed variants; lower = stronger; >10 µg/ml means not reached at the top dose. No active / inactive call. The stated detection limit is 0.0005 µg/ml; values near or below 0.001 µg/ml lie at the floor of the assay.

B1: BD55-5459 (protein)
chain 1: QITLKESGPTLVKPTQTLTLTCTFSGFSLSTTEVGVGWIRQPPGKALEWLALIYWDDNKRYSPSLESRVTITKDTSKNQVVLTMTNMDPVDTATYYCAHSHYDFLAGYVGFDFWGQGALVTVSS
chain 2: DIVMTQTPFSSPVTLGQPATISCRSSQSLVHSDGNTYLNWLQQRPGQPPRLLIYQISKRFSGVPDRFSGSGAGTDFTLKISRVEAEDVGIYYCMQATQFPHEMYTFGQGTKLVIK
B2: BD55-1064 (protein)
chain 1: QVQLVESGGGVAQPGGSLRLSCAASGFSFSTFAMHWVRQAPGTGLEWVGVIWSDGNVKHYADSVKGRFTISRDNSKNTVDLQMNNLRAEDTAVYYCARDYSATYWVTWFDPWGQGTLVTVSS
chain 2: DIQLTQSPSSLSASVGDRITITCRAHQSVNKYLNWYQQKPGTAPKLLIYASSTLQSGVPSRFSGSGSGTDYTLTISSLQPEDFATYYCQQSYSTPPWTFGQGTRVEIK
B3: BD55-5476 (protein)
chain 1: EVQLVESGGGLVQPGGSLRLSCVASGFAFRSYAMHWVRQAPGKRLEYVSSISSNGGLTFYADSVKGRFTISRDDSKSTLYLQMGSLTVEDMAVYYCAREGRGYYLYFDYWGQGTLVTVSS
chain 2: DIQMTQSPSSLSASVGDRVTITCRASQSISSYLNWYQQKPGEAPKLLIHLASTLQSGVPSRFSGSGSGTEFTLTISTLQPEDFATYYCQQSYTTPRYTFGQGTKLEIK
B4: BD55-5442 (protein)
chain 1: QVQLVESGGGVVQPGRSLRLSCAASGFTFSDYDMHWVRQSPGKGLEWVAVISSDGSIKFYTDSVKGRFTISRDNSKNTLFLQMNSLTAEDTAVFYCVREGDNRAYYYGAGAFDIWGPGTMVTVSS
chain 2: DIQMTQSPSSLSASVGDRVTITCRASQTISNYLNWYQQKPGKAPKLLIYAASSLQSGVPSRFSGSGSGTDFTLTISTLQPEDFATYFCQQSYSTPEVTFGQGTRLEIK
B5: BD55-5462 (protein)
chain 1: EVQLVESGGGLVQPGRSLRLSCTVSGFIFGDHAISWVRQAPGKGLEWVGFIRSKAFGGTTEYAASVRGRFTISRDDSKSIAYLQMISLKTADTGVYYCARDLTYGVYQYDSTVYFPGLDAWGQGALVTVSA
chain 2: DIVMTQTPLSLSVTPGQPASISCKSSQSLLHGDGKTYLYWYLQKAGQSPQLLIYEVSKRFSGVPDRFSGSGSGTDFTLKISRVEAEDVGVYYCMQSKQLRTFGQGTKVEIK
B6: BD55-5454 (protein)
chain 1: EVQLVESGGGLVQPGGSLRLSCAASGFTFSSYAMHWVRQAPGKGLEYVSSITNNGDGTFYAPSVKGRFIISRDNAKSTVYLQMGGLRPEDMAVYYCARESRAVALWGLDYWGQGTLVAVYS
chain 2: DIQMTQSPSSLSASVGDRVTISCRASQTISRHLNWYQHKPGKAPKLLIYGASTLQGGVPSRFSASGSGTDFTLTISSLQPEDFATYYCQQSYITPVYTFGQGTKVEIK

What follows are binders tested against SARS-CoV-2 Omicron BA.1 spike pseudovirus (assay: pseudovirus neutralization IC50; higher = weaker neutralization).
Procedure: (§1)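 Single-round VSV luciferase pseudovirus mixed with antibody dilutions for 1 h and put on Huh-7 cells for about a day; IC50 from the dose curve.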

B1 and B2 cannot be ordered by “pseudovirus neutralization IC50” value: over 10 µg/mL for the first, over 10 µg/mL for the second.

B3 and B4 cannot be ordered by “pseudovirus neutralization IC50” value: over 10 µg/mL for the first, over 10 µg/mL for the second.

B5 and B6 cannot be ordered by “pseudovirus neutralization IC50” value: over 10 µg/mL for the first, over 10 µg/mL for the second.

Each binder was assayed against SARS-CoV-2 Omicron BA.2 spike pseudovirus in the same assay as above.
Procedure: as §1

Point of comparison: B5, “pseudovirus neutralization IC50” value 0.0452 µg/mL. Against it:
- B1 — higher, > 10 µg/mL
- B2 — higher, > 10 µg/mL
- B3 — higher, > 10 µg/mL
- B4 — higher, > 10 µg/mL
- B6 — higher, > 10 µg/mL

The binders below were run against SARS-CoV-2 Omicron BA.2.75 spike pseudovirus in the same assay as above.
Procedure: as §1

Point of comparison: B5, “pseudovirus neutralization IC50” value 0.382 µg/mL. Against it:
- B1 — higher, > 10 µg/mL
- B2 — higher, > 10 µg/mL
- B3 — higher, > 10 µg/mL
- B4 — higher, > 10 µg/mL
- B6 — higher, > 10 µg/mL

These binders were tested against SARS-CoV-2 Omicron BA.5 spike pseudovirus in the same assay as above.
Procedure: as §1

Point of comparison: B5, “pseudovirus neutralization IC50” value 0.531 µg/mL. Against it:
- B1 — higher, > 10 µg/mL
- B2 — higher, > 10 µg/mL
- B3 — higher, > 10 µg/mL
- B4 — higher, > 10 µg/mL
- B6 — higher, > 10 µg/mL

What follows are binders tested against SARS-CoV-2 Omicron BQ.1.1 spike pseudovirus in the same assay as above.
Procedure: as §1

Point of comparison: B5, “pseudovirus neutralization IC50” value 0.51 µg/mL. Against it:
- B1 — higher, > 10 µg/mL
- B2 — higher, > 10 µg/mL
- B3 — higher, > 10 µg/mL
- B4 — higher, > 10 µg/mL
- B6 — higher, > 10 µg/mL

These binders were tested against SARS-CoV-2 Omicron XBB spike pseudovirus in the same assay as above.
Procedure: as §1

B1 and B2 cannot be ordered by “pseudovirus neutralization IC50” value: over 10 µg/mL for the first, over 10 µg/mL for the second.

B3 and B4 cannot be ordered by “pseudovirus neutralization IC50” value: over 10 µg/mL for the first, over 10 µg/mL for the second.

B5 and B6 cannot be ordered by “pseudovirus neutralization IC50” value: over 10 µg/mL for the first, over 10 µg/mL for the second.

What follows are binders tested against SARS-CoV-2 early D614G spike pseudovirus in the same assay as above.
Procedure: as §1

Point of comparison: B1, “pseudovirus neutralization IC50” value 0.061 µg/mL. Against it:
- B2 — 7.5-fold higher, 0.455 µg/mL
- B3 — higher, > 10 µg/mL
- B4 — 27-fold higher, 1.64 µg/mL
- B5 — 12-fold lower, 0.00495 µg/mL
- B6 — higher, > 10 µg/mL
